# Experimental data: paper PMC9701186 (Nature Communications, 2022)
# Columns and labels:
# [1] = target: CCHFV strain Kosovo/Hoti GP38 (CCHFV, strain Kosovo/Hoti, strain); assay: BLI
# [2] = target: CCHFV strain Afg-09 GP38 (CCHFV, strain Afg09, UniProt E5FEZ4, strain); assay: BLI
# [3] = target: CCHFV Kosovo/Hoti GP38 (CCHFV, strain Kosovo/Hoti, strain); assay: SPR
Binder,Kd [1],Kd [2],Kd [3]
"human chimeric 13G8 mAb (c13G8) (antibody, V domains shown, copies: 2 + 2) VH: DVQLQQSGPGLVAPSQSLSITCTVSGFSLTNYGIHWVRQPPGKGLEWLGVIWAGGYTKYNSALMSRLSMSKDNSKSQVFLKMNSLQTDDTAMYYCARDEVRRDYYAMDHWGQGTTVTVSS VL: DIQMTQSPAILSASPGEKVTMTCWASSGVSYMHWYQQKPGSSPKPWIFATSNLASGVPARFSGSGSGTSYSLTISRVEAEDAATYYCQQWSFNPLTFGAGTKLEIK",557 pM,492 pM,
"human chimeric 13G8 mAb (c13G8) (antibody, V domains shown, source: Expi293 cells, purified (mAb Select Sure column)) VH: DVQLQQSGPGLVAPSQSLSITCTVSGFSLTNYGIHWVRQPPGKGLEWLGVIWAGGYTKYNSALMSRLSMSKDNSKSQVFLKMNSLQTDDTAMYYCARDEVRRDYYAMDHWGQGTTVTVSS VL: DIQMTQSPAILSASPGEKVTMTCWASSGVSYMHWYQQKPGSSPKPWIFATSNLASGVPARFSGSGSGTSYSLTISRVEAEDAATYYCQQWSFNPLTFGAGTKLEIK",,,1700 pM
